Laboratory results: article PMC8584173, “The Cytotoxic Effect of Copper (II) Complexes with Halogenated 1,3-Disubstituted Arylthioureas on Cancer and Bacterial Cells” (International Journal of Molecular Sciences, 2021)

Legend:
Type in all cases: cell-based
[1] = system: SW620 (human metastatic colon cancer); assay: MTT cytotoxicity assay, SW620; conditions: IC50 for normal cell line (HaCaT)/IC50 SW620
Procedure: (§1) The human primary (SW480), metastatic (SW620) colon cancer, metastatic prostate cancer (PC3) and human immortal keratinocyte (HaCaT) cell lines were purchased from the American Type Culture Collection (ATCC, Rockville, USA). The cells were cultured in medium according to protocols (MEM for SW480 and SW620, RPMI 1640 for PC3 and DMEM for HaCaT cells) supplemented with 10% fetal bovine serum (FBS), penicillin (100 U/mL) and streptomycin (100 μg/mL) and cultured in 37 °C/ 5% CO2 humidified incubator. The cells were cultured until appropriate confluence was achieved (80–90%). Next, they were harvested by treatment with 0.25% trypsin (Gibco Life Technologies, USA) and used for studies.
(§2) Cells without studied compounds in medium were used as a control.
(§3) The cell viability was assessed by determination of MTT salt (3-(4,5-dimethylthiazol-2-yl)-2,5-diphenyltetrazolium bromide) conversion by mitochondrial dehydrogenase. MTT assay was performed as previously described. Experiments were repeated three times. Cell viability was presented as a percentage of MTT reduction in the treated cells versus the control cells. Number of viable cells cultured without studied compounds was assumed to be 100%. Decreased relative MTT level means decreased cell viability.

[2] = system: PC3 (human metastatic prostate cancer); assay: MTT cytotoxicity assay, PC3; conditions: IC50 for normal cell line (HaCaT)/IC50 PC3
Procedure: as §1, §2
as §3, with “[…] Thiourea complexes with the highest cytotoxic potential assessed by” for “Decreased relative”, “determination (with the lowest IC50) were chosen for subsequent assessments of cytotoxicity mechanisms.” for “level means decreased cell viability.”

[3] = system: SW480 (human primary colon cancer); assay: MTT cytotoxicity assay, SW480; conditions: IC50 for normal cell line (HaCaT)/IC50 SW480
Procedure: as §1, §2
as §3, with “[…] Thiourea complexes with the highest cytotoxic potential assessed by” for “Decreased relative”, “determination (with the lowest IC50) were chosen for subsequent assessments of cytotoxicity mechanisms.” for “level means decreased cell viability.”

## [Cl][Cu][Cl] [CuCl2, copper (II) chloride, reference compound]
[1]
  SI (selectivity index): 1.2
[2]
  SI (selectivity index): 1.1
[3]
  SI (selectivity index): 1.0
